In patent US20160361334A1, “APPLICATION OF BAICALIN IN PREPARATION OF DRUG FOR TREATING RICIN POISONING” (published 2016):

Experiments:
yeast-type fungi = conditions: cited from earlier work
Hela cells = assay: Protective effects of baicalin on Hela cells against ricin cytotoxicity (lactate dehydrogenase release); conditions: 72 h, LDH release; for Survival rate (%): Hela cells, 100 pg ricin per well

## O=C(O)[C@H]1O[C@@H](Oc2cc3oc(-c4ccccc4)cc(=O)c3c(O)c2O)[C@H](O)[C@@H](O)[C@@H]1O
yeast-type fungi
  minimal inhibitory concentration (MIC): 70 to 100 mg/L
Hela cells; Baicalin 4 μg/ml
  Survival rate (%): 27.56%
Hela cells; Baicalin 8 μg/ml
  Survival rate (%): 42.18%
Hela cells; Baicalin 16 μg/ml
  Survival rate (%): 56.89%
Hela cells; Baicalin 32 μg/ml
  Survival rate (%): 77.42%
Hela cells; dose-dependent manner
  Inhibition of cytotoxicity of Hela cells caused by ricin: significantly inhibited the cytotoxicity
